Experimental findings from patent US11638713B2, “Patentiflorin A analogs as antiviral agents” (priority 2019, dated 2023) are described below.

The test system of the data set is HIV. The class given is cell-based. The note with it: ratio CC50 / EC50.
Consider “2″-Acetyl-7-O-β-D-patentiflorin A [Compound 27bc]”, for which the SI turned out to be 1472.4.

As to `COc1cc2c(O)c3c(c(-c4ccc5c(c4)OCO5)c2cc1OC)C(=O)OC3` [Compound 5, diphyllin], the SI was found to be 97.3. Next, `COc1cc2c(OCC(=O)OC(C)(C)C)c3c(c(-c4ccc5c(c4)OCO5)c2cc1OC)C(=O)OC3` [Compound 12a]: over 19; `CCOC(=O)COc1c2c(c(-c3ccc4c(c3)OCO4)c3cc(OC)c(OC)cc13)C(=O)OC2` [Compound 12b]: over 129; `COc1cc2c(OCC(=O)O)c3c(c(-c4ccc5c(c4)OCO5)c2cc1OC)C(=O)OC3` [Compound 13]: over 4.9. The result for `COc1cc2c(OCC(N)=O)c3c(c(-c4ccc5c(c4)OCO5)c2cc1OC)C(=O)OC3` [Compound 14a] reads 5.3; that for `CNC(=O)COc1c2c(c(-c3ccc4c(c3)OCO4)c3cc(OC)c(OC)cc13)C(=O)OC2` [Compound 14b], 7.6; that for `COc1cc2c(OCCO)c3c(c(-c4ccc5c(c4)OCO5)c2cc1OC)C(=O)OC3` [Compound 15a], 27.3. The result for `COc1cc2c(OCC(C)(C)O)c3c(c(-c4ccc5c(c4)OCO5)c2cc1OC)C(=O)OC3` [Compound 15b] reads 85.7; that for `COc1cc2c(OCC#N)c3c(c(-c4ccc5c(c4)OCO5)c2cc1OC)C(=O)OC3` [Compound 17a], 627.9; that for `COc1cc2c(OC)c3c(c(-c4ccc5c(c4)OCO5)c2cc1OC)C(=O)OC3` [Compound 17b], 815.3. For the molecule `C#CCOc1c2c(c(-c3ccc4c(c3)OCO4)c3cc(OC)c(OC)cc13)C(=O)OC2` [Compound 17c], the SI is recorded as 186.9.

For `COc1cc2c(Oc3ncccn3)c3c(c(-c4ccc5c(c4)OCO5)c2cc1OC)C(=O)OC3` [Compound 17d], the SI came to 38.4. Turning to `COc1cc2c(OC(=O)C3CCCC3)c3c(c(-c4ccc5c(c4)OCO5)c2cc1OC)C(=O)OC3` [Compound 17f], the SI is 9.2. For the molecule `COc1cc2c(OC(=O)c3ccc(F)cc3)c3c(c(-c4ccc5c(c4)OCO5)c2cc1OC)C(=O)OC3` [Compound 17g], the SI is given as 16.6.

Turning to `COc1ccc(C(=O)Oc2c3c(c(-c4ccc5c(c4)OCO5)c4cc(OC)c(OC)cc24)C(=O)OC3)cc1` [Compound 17h], the SI stood at 15.1.

Consider `COc1cc2c(OS(=O)(=O)C(F)(F)F)c3c(c(-c4ccc5c(c4)OCO5)c2cc1OC)C(=O)OC3` [Compound 18], for which the SI stood at 2.8. Next, `COc1cc2c(B3OC(C)(C)C(C)(C)O3)c3c(c(-c4ccc5c(c4)OCO5)c2cc1OC)C(=O)OC3` [Compound 19a]: 136.0; `COc1cc2c(C)c3c(c(-c4ccc5c(c4)OCO5)c2cc1OC)C(=O)OC3` [Compound 19b]: 12.7.

Regarding `COc1cc2c(-c3ccncc3)c3c(c(-c4ccc5c(c4)OCO5)c2cc1OC)C(=O)OC3` [Compound 19c], the SI is 18.8.

For `COc1cc2cc3c(c(-c4ccc5c(c4)OCO5)c2cc1OC)C(=O)OC3` [Compound 19d], the SI is reported as 237.4. Consider `COc1cc2c(Nc3ccc(C(F)(F)F)cc3)c3c(c(-c4ccc5c(c4)OCO5)c2cc1OC)C(=O)OC3` [Compound 19e], for which the SI is recorded as over 45. The result for `COc1cc2c(Nc3ccccc3)c3c(c(-c4ccc5c(c4)OCO5)c2cc1OC)C(=O)OC3` [Compound 19f] reads 4.6. The result for `CCc1c2c(c(-c3ccc4c(c3)OCO4)c3cc(OC)c(OC)cc13)C(=O)OC2` [Compound 19g] reads 10.2; that for `COc1cc2c(-c3cccs3)c3c(c(-c4ccc5c(c4)OCO5)c2cc1OC)C(=O)OC3` [Compound 19h], 8.9.

For the molecule `COc1cc2c(-c3cccnc3)c3c(c(-c4ccc5c(c4)OCO5)c2cc1OC)C(=O)OC3` [Compound 19i], the SI worked out at 43.7.

In the case of `COc1cc2c(-c3ccco3)c3c(c(-c4ccc5c(c4)OCO5)c2cc1OC)C(=O)OC3` [Compound 19k], the SI is 17.7.

Consider `COc1cc2c(C3=CCN(C(=O)OC(C)(C)C)CC3)c3c(c(-c4ccc5c(c4)OCO5)c2cc1OC)C(=O)OC3` [Compound 19l], for which the SI is given as 55.1.

With `COc1cc2c(-c3ccc4c(c3)OCO4)c3c(c(N4CCOCC4)c2cc1OC)COC3=O` [Compound 19m], the SI was 16.9. For the molecule `COc1cc2c(C(C)=O)c3c(c(-c4ccc5c(c4)OCO5)c2cc1OC)C(=O)OC3` [Compound 19n], the SI was 26.8. Next, `COc1cc2c(C#C[Si](C)(C)C)c3c(c(-c4ccc5c(c4)OCO5)c2cc1OC)C(=O)OC3` [Compound 19o]: 34.2.

In the case of `COc1cc2c(N=C(c3ccccc3)c3ccccc3)c3c(c(-c4ccc5c(c4)OCO5)c2cc1OC)C(=O)OC3` [Compound 19p], the SI is over 36.

Consider `COc1cc2c(-c3ccc4c(c3)OCO4)c3c(c(C(C)O)c2cc1OC)COC3=O` (centres unmarked) [Compound 20], for which the SI turned out to be 17.9. The result for `C#Cc1c2c(c(-c3ccc4c(c3)OCO4)c3cc(OC)c(OC)cc13)C(=O)OC2` [Compound 21] reads 11.7. For `COc1cc2c(N)c3c(c(-c4ccc5c(c4)OCO5)c2cc1OC)C(=O)OC3` [Compound 22], the SI is given as 222.2. Next, `COc1cc2c(NC(C)=O)c3c(c(-c4ccc5c(c4)OCO5)c2cc1OC)C(=O)OC3` [Compound 24]: over 133; `COc1cc2c(OC3OC[C@@H](OC(C)=O)[C@H](OC(C)=O)[C@H]3OC(C)=O)c3c(c(-c4ccc5c(c4)OCO5)c2cc1OC)C(=O)OC3` (stereo partly drawn) [Compound 25a, Peracetylated 7β-D-xylosyloxydiphyllin]: 438.6. The result for `COc1cc2c(OC3O[C@H](C)[C@@H](O)[C@H](O)[C@H]3O)c3c(c(-c4ccc5c(c4)OCO5)c2cc1OC)C(=O)OC3` (some centres unmarked) [Compound 26b, Patentiflorin A] reads 16.4. The result for `COc1cc2c(OC3O[C@@H](C)[C@@H](O)[C@@H](O)[C@@H]3O)c3c(c(-c4ccc5c(c4)OCO5)c2cc1OC)C(=O)OC3` (stereo partly drawn) [Compound 26d, 7-O-β-L-fucopyranosyldiphyllin] reads over 426.1; that for `COc1cc2c(OC3O[C@H](CO)[C@H](O)[C@H](O)[C@H]3O)c3c(c(-c4ccc5c(c4)OCO5)c2cc1OC)C(=O)OC3` (stereo partly drawn) [Compound 26g, 7-O-β-D-galactopyranosyldiphyllin], 5.5; that for `COc1cc2c(OC3O[C@H](C)[C@@H](OC(C)=O)[C@H](O)[C@H]3O)c3c(c(-c4ccc5c(c4)OCO5)c2cc1OC)C(=O)OC3` (stereo partly drawn) [Compound 27ba, 4″-Acetyl-7-O-β-D-patentiflorin A], 137.3. For the molecule `COc1cc2c(OC3O[C@H](C)[C@@H](O)[C@H](OC(C)=O)[C@H]3O)c3c(c(-c4ccc5c(c4)OCO5)c2cc1OC)C(=O)OC3` (stereo partly drawn) [Compound 27bb, 3″-Acetyl-7-O-β-D-patentiflorin A], the SI was found to be 584.1. Next, `COc1cc2c(OC3O[C@H](C)[C@@H](OC(C)=O)[C@H](OC(C)=O)[C@H]3O)c3c(c(-c4ccc5c(c4)OCO5)c2cc1OC)C(=O)OC3` (stereo partly drawn) [Compound 27bd, 3″, 4″-Diacetyl-7-O-β-D-patentiflorin A]: 65.9; `COc1cc2c(OC3O[C@H](C)[C@@H](OC(C)=O)[C@H](O)[C@H]3OC(C)=O)c3c(c(-c4ccc5c(c4)OCO5)c2cc1OC)C(=O)OC3` (stereo partly drawn) [Compound 27be, 2″,4″-Diacetyl-7-O-β-D-patentiflorin A]: 852; `COc1cc2c(OC3O[C@H](C)[C@@H](O)[C@H](OC(C)=O)[C@H]3OC(C)=O)c3c(c(-c4ccc5c(c4)OCO5)c2cc1OC)C(=O)OC3` (stereo partly drawn) [Compound 27bf, 2″,3″-Diacetyl-7-O-β-D-patentiflorin A]: 263.9.

For `C=CCOC(=O)O[C@H]1C(Oc2c3c(c(-c4ccc5c(c4)OCO5)c4cc(OC)c(OC)cc24)C(=O)OC3)OC[C@@H](O)[C@@H]1OC(C)=O` (stereo partly drawn) [Compound 28ab2, 2″-O-allyl oxycarbonyl-3″-acetyl-7-O-β-D-xylosyldiphyllin], the SI was 167.7. Next, `C=CCOC(=O)O[C@@H]1COC(Oc2c3c(c(-c4ccc5c(c4)OCO5)c4cc(OC)c(OC)cc24)C(=O)OC3)[C@H](OC(=O)OCC=C)[C@H]1OC(C)=O` (stereo partly drawn) [Compound 28ab3, 2″,4″-O-diallyl oxycarbonyl-3″-acetyl-7-O-β-D-xylosyldiphyllin]: 16.8; `C=CCOC(=O)O[C@H]1[C@H](O)[C@@H](OC(=O)OCC=C)C(Oc2c3c(c(-c4ccc5c(c4)OCO5)c4cc(OC)c(OC)cc24)C(=O)OC3)O[C@@H]1C` (stereo partly drawn) [Compound 29b, 2″,4″-O-diallyl oxycarbonyl-7-O-β-D-patentiflorin A]: 40.2; `COc1cc2c(OC3O[C@H](C)[C@@H](O)[C@H](OC(=O)c4cc([N+](=O)[O-])cc([N+](=O)[O-])c4)[C@H]3O)c3c(c(-c4ccc5c(c4)OCO5)c2cc1OC)C(=O)OC3` (stereo partly drawn) [Compound 31b, 3″-O-(3,5-dinitrobenzoyl)-7-O-β-D-patentiflorin A]: 51.0. Next, `CCCC(=O)O[C@H]1[C@H](O)[C@@H](C)OC(Oc2c3c(c(-c4ccc5c(c4)OCO5)c4cc(OC)c(OC)cc24)C(=O)OC3)[C@@H]1O` (stereo partly drawn) [Compound 31c, 3″-O-butyryl-7-O-β-D-patentiflorin A]: 477.0; `COc1cc2c(OC3O[C@H](C)[C@@H](O)[C@H](OC(=O)c4ccccc4)[C@H]3O)c3c(c(-c4ccc5c(c4)OCO5)c2cc1OC)C(=O)OC3` (stereo partly drawn) [Compound 31d, 3″-O-benzoyl-7-O-β-D-patentiflorin A]: over 74. Next, `COc1cc2c(OC3O[C@H](C)[C@@H](O)[C@H](OC(=O)c4ccc(N(C)C)cc4)[C@H]3O)c3c(c(-c4ccc5c(c4)OCO5)c2cc1OC)C(=O)OC3` (stereo partly drawn) [Compound 31e, 3″-O-p-dimethylaminobenzoyl-7-O-β-D-patentiflorin A]: 7.3; `COc1cc2c(OC3O[C@H](C)[C@@H](O)[C@H](OC(=O)CC#N)[C@H]3O)c3c(c(-c4ccc5c(c4)OCO5)c2cc1OC)C(=O)OC3` (stereo partly drawn) [Compound 31j, 3″-O-cyanoacetyl-7-O-β-D-patentiflorin A]: 7.3.
